Pooled drug test results. Numbers come from NIAID ChemDB, via PubChem.

Shared fields: whole-cell or culture tests; agent: Mycobacterium tuberculosis

Two numbers with a dash give a range or band.

structure,method,conditions,cells,dose,measure,strain or isolate,result
Oc1ccc(CCNCCNCCc2ccc(Cl)cc2Cl)cc1,,,,,MIC,,50 µM
Cc1ccc(OCc2nnc3n2N(C(=O)c2ccncc2)C(c2ccccc2)=C(c2ccccc2)S3)cc1,,,,,MIC,,100 µg/mL
O=C(O)c1ccc(NCn2nc(-c3cnccn3)oc2=S)cc1O,,,,,MIC,H37Rv,0.1 µg/mL
O=[N+]([O-])c1cn2c(n1)OC[C@@H](OCc1ccnc(N3CCC(Oc4ccc(OC(F)(F)F)cc4)CC3)c1)C2,low oxygen,,,,MIC90,,5.2 µM
O=C1c2cccnc2-c2nccc3c2c1nc1ccccc13,,,,,MIC,H37Rv,0.1 µg/mL
O=[N+]([O-])c1cn2c(n1)OC[C@@H](OCc1ccc(Oc3ccc(C(F)(F)F)cc3)cc1)C2,low oxygen,,,,MIC90,,0.65 µM
Cc1c(F)c(N2CCNC(C)C2)cc2c1c(=O)c(C(=O)O)cn2C1CC1,,,,,MIC50,33 clinical isolates,0.5 µg/mL
CCC1CCCCN1CCNCCC(c1ccccc1)c1ccccc1,,,,,MIC,,25 µM
CCC1CCC2CN(/N=C/c3c4c(O)c5c(O)c(C)c6c(c5c3O)C(=O)[C@@](C)(O/C=C/[C@H](OC)[C@@H](C)[C@@H](OC(C)=O)[C@H](C)[C@H](O)[C@H](C)[C@@H](O)[C@@H](C)/C=C/C=C(/C)C(=O)N4)O6)CCN2C1,,,,,MIC,,≤0.04 µg/mL
O=S(=O)(O)c1ccc2cc(N=Nc3cc(S(=O)(=O)O)c4cccnc4c3O)ccc2c1,BACTEC,,,6.25 µg/mL,inhibition,H37Rv,19%
CCn1cc(C(=O)O)c(=O)c2cc(F)c(N3CCN(CC(C)=O)CC3)c(F)c21,BACTEC,,VERO,,MIC,H37Rv,3.13 µg/mL
CCOC(=O)N1CCN(c2ccc(C3CC(c4ccc([N+](=O)[O-])o4)=NO3)cc2)CC1,,,,,MIC,UT30,0.003 µg/mL
COc1cc(CNCCNCc2ccccc2F)cc(OC)c1OC,,,,,MIC,,50 µM
O=[N+]([O-])c1cn2c(n1)OC[C@@H](OCc1ccc(N3CCN(c4ccc(C(F)(F)F)cn4)CC3)nc1)C2,low oxygen,,,,MIC90,,2.5 µM
CO[C@H]1/C=C/O[C@@]2(C)Oc3c(C)c(O)c4c(O)c(c(/C=N/N5CCN(C)CC5)c(O)c4c3C2=O)NC(=O)/C(C)=C\C=C\[C@H](C)[C@H](O)[C@@H](C)[C@@H](O)[C@@H](C)[C@H](OC(C)=O)[C@@H]1C,,,,,MIC,Praha 1,>9.7 µM
NC1(C(=O)O)CSSC1,BACTEC,,,,MIC,H37Rv,≥12.5 µg/mL
CC(=O)Oc1cc(Cl)ccc1C(=O)N(C(C)=O)c1ccc(Br)cc1,,,,,MIC,My 331/88,4 µg/mL
CC1(C)S[C@@H]2[C@@H](NC(=O)CCCC(N)C(=O)O)C(=O)N2[C@@H]1C(=O)O,BACTEC,,,,MIC,H37Rv,≥12.8 µg/mL
COc1ccc(C(N)=Nc2nc(-c3ccccn3)cc3ccccc23)cc1,,,,,MIC,H37Rv,0.5 µg/mL
O=C(NCc1ccccc1)c1ccc(Cl)cc1O,,14 d,,,MIC,H37Rv,62 µM
CC1=CC(=O)C2CC1C2(C)C,BACTEC,,,,MIC,H37Rv,≥128 µg/mL
CN(C)CCc1c2c(nc3ccccc13)C(=O)c1cccnc1C2=O,,,,,MIC,H37Rv,3.13 µg/mL
CC1(C)CC[C@]2(C(=O)O)CC[C@]3(C)C(CC[C@@H]4[C@@]5(C)C[C@H](O)CC(C)(C)[C@@H]5CC[C@]43C)[C@@H]2C1,resazurin,,,,MIC,INH-R (ATCC 35822),25 µg/mL
Cc1c2c(nc3ccccc13)C(=O)c1cccnc1C2=O,,,,,MIC,H37Rv,6.25 µg/mL
O=[N+]([O-])c1cn2c(n1)OC[C@@H](OCc1ccc(Oc3ccc(F)cc3)cc1)C2,resazurin,,,,MIC90,,0.045 µM
COc1ccc(C(=O)NCc2ccccc2)c(O)c1,,14 d,,,MIC,H37Rv,125 µM
O=C(O)c1cn(-c2ccc([N+](=O)[O-])cc2F)c2cc(N3CCNCC3)c(F)cc2c1=O,BACTEC,,,6.25 µg/mL,inhibition,H37Rv,37%
O=C(c1ccncc1)N1C(c2ccccc2)=C(c2ccccc2)Sc2nnc(COc3ccccc3)n21,,,,,MIC,,10 µg/mL
CN1CCC2CCCCN2CC1=O,BACTEC,,,12.5 µg/mL,inhibition,H37Rv,-7%
Nc1ccccc1-c1nnc2n1N(C(=O)c1ccncc1)C(c1ccccc1)=C(c1ccccc1)S2,,,,,MIC,,100 µg/mL
COC(=O)NC1=NC(C(=O)c2ccc(Cl)c(Cl)c2)CS1,,,,,MIC,H37Rv,>50 µg/mL
COc1nc2ccc(Br)cc2cc1C(c1ccccc1)C(O)(CCN1CCCC1)c1ccc2ccccc2c1,,,,,MIC90,H37Rv,46.19 µg/mL
CO[C@@H]1[C@@H](OC(=O)c2ccc(C)[nH]2)[C@@H](O)C(Oc2ccc3c(O)c(NC(=O)c4c[nH]c(C(=O)Nc5c(O)c6ccc(OC7OC(C)(C)[C@H](OC)[C@@H](OC(=O)c8ccc(C)[nH]8)[C@H]7O)c(C)c6oc5=O)c4C)c(=O)oc3c2C)OC1(C)C,,,,,MIC,ETA-R,12.8 µg/mL
O=C(NCc1ccccn1)c1cc(F)ccc1O,,14 d,,,MIC,H37Rv,500 µM
CC(=O)Oc1c(Cl)cccc1C(=O)Nc1ccc(Cl)cc1,,,,,MIC,My 331/88,4 µg/mL
COc1cccc(C(N)=Nc2nc(-c3ccccn3)cc3ccccc23)c1,,,,,MIC,H37Rv,0.25 µg/mL
O=C(c1ccncc1)N1C(c2ccccc2)=C(c2ccccc2)Sc2nnc(COc3ccccc3[N+](=O)[O-])n21,,,,,MIC,,100 µg/mL
CN(C)N=Nc1ccccc1C(=O)NNC(=O)CC#N,BACTEC,,,,MIC bound,H37Rv,>12.5 µg/mL
O=[N+]([O-])c1cn2c(n1)OC[C@@H](OCc1ccc(CNc3ccc(C(F)(F)F)nc3)cc1)C2,resazurin,,,,MIC90,,0.25 µM
CC(=O)Oc1cc(Cl)ccc1C(=O)Nc1ccc(C(F)(F)F)cc1,,,,,MIC,My 331/88,4 µg/mL
CN(Cc1ccc(CO[C@@H]2COc3nc([N+](=O)[O-])cn3C2)cc1)Cc1ccc(OC(F)(F)F)cc1,low oxygen,,,,MIC90,,2.7 µM
CO[C@H]1/C=C/O[C@@]2(C)Oc3c(C)c(O)c4c(O)c(c(/C=N/N5CCN6CCCCC6C5)c(O)c4c3C2=O)NC(=O)/C(C)=C\C=C\[C@H](C)[C@H](O)[C@@H](C)[C@@H](O)[C@@H](C)[C@H](OC(C)=O)[C@@H]1C,,,,,MIC,,0.08 µg/mL
COC(=O)NC1=NC(C(=O)c2ccc(C)cc2)CS1,,,,,MIC,H37Rv,>50 µg/mL
CN(C)c1ccc(/C=N/NC(=O)CCSCCC(=O)N/N=C/c2ccc(N(C)C)cc2)cc1,BACTEC,,,12.5 µg/mL,inhibition,H37Rv,22%
CO[C@H]1/C=C/O[C@@]2(C)Oc3c(C)c(O)c4c(O)c(c(/C=N/N5CCN(C6CCCC6)CC5)c(O)c4c3C2=O)NC(=O)/C(C)=C\C=C\[C@H](C)[C@H](O)[C@@H](C)[C@@H](O)[C@@H](C)[C@H](OC(C)=O)[C@@H]1C,,,,,MIC,,0.08 µg/mL
CN(C)/C=C/c1c2ccccc2nc2ccccc12,,,,,MIC,H37Rv,21 µg/mL
CC(NCCNCCc1ccccc1F)c1cccc2ccccc12,,,,,MIC,,25 µM
COc1nc2ccc(Br)cc2cc1C(c1ccccc1)C(O)(CCCN1CCCC1)c1ccc2ccccc2c1,,,,,MIC90,H37Rv,47.31 µg/mL
COC(=O)NC1=NC(C(=O)c2ccc(Cl)cc2)CS1,,,,,MIC,H37Rv,0.75 µg/mL
Nc1ccc(-n2cc(C(=O)O)c(=O)c3cc(F)c(N4CCNCC4)cc32)c(F)c1,BACTEC,,VERO,,MIC,H37Rv,1.56 µg/mL
O=C(c1ccc([N+](=O)[O-])o1)N1CCc2cc(N3CCN(Cc4ccccc4)CC3)ccc2C1,,,,,MIC,HN878,0.05 µg/mL
CCC(C)NC(=O)C1C2CC3OC(=O)C1C3C2,BACTEC,,,12.5 µg/mL,inhibition,H37Rv,17%
COc1nc2ccc(Br)cc2cc1C(c1ccccc1)C(O)(CCCCN(C)C)c1ccc2ccccc2c1,,,,,MIC90,H37Rv,1.85 µg/mL
CCC(CC)NCCNC[C@]1(C)CCC[C@]2(C)c3ccc(C(C)C)cc3CC[C@@H]12,,,,,MIC,,25 µM
S=c1oc(-c2cnccn2)nn1CNc1cscn1,,,,,MIC,H37Rv,0.1 µg/mL
CCOC(=O)NC1=NC(C(=O)c2ccc(Cl)c(Cl)c2)CS1,,,,,MIC,H37Rv,>200 µg/mL
COc1nc2ccc(Br)cc2cc1C(c1ccccc1)C(O)(CCN1CCSCC1)c1ccccc1,,,,,MIC90,H37Rv,44.77 µg/mL
O=C(NCc1cccnc1)c1ccccc1O,,14 d,,,MIC,H37Rv,500 µM
S=c1[nH]nc(-c2cnccn2)o1,,,,,MIC,H37Rv,0.1 µg/mL
CC1(C)[C@H]2CC[C@@H](CNCCNCCCCCO)[C@@H]1C2,,,,,MIC,,50 µM
COC(=O)CC(NC(=O)OCc1ccccc1)C(=O)NC(CO)C(=O)NCC(=O)Oc1ccc([N+](=O)[O-])cc1,BACTEC,,,12.8 µg/mL,inhibition,H37Rv,25%
CN(C)/C=C/c1c2c(nc3ccccc13)C(=O)c1ccccc1C2=O,,,,,MIC,H37Rv,0.39 µg/mL
O=C1CSc2nnc(COc3cccc4ccccc34)n2N1C(=O)c1ccncc1,,,,,MIC,,100 µg/mL
O=P1(O)c2ccccc2Nc2cc(C(F)(F)F)ccc21,BACTEC,,,12.5 µg/mL,inhibition,H37Rv,2%
CN(Cc1ccc(CO[C@@H]2COc3nc([N+](=O)[O-])cn3C2)cc1)c1ccc(OC(F)(F)F)cc1,low oxygen,,,,MIC90,,0.45 µM
CC(=O)Nc1cc2nc3ccc(C)cc3oc-2c(C)c1=O,BACTEC,,,,MIC bound,H37Rv,>12.5 µg/mL
CC(=O)Oc1cc(Cl)ccc1C(=O)Nc1ccc(Cl)cc1,,,,,MIC,My 331/88,2 µg/mL
O=[N+]([O-])c1cccnc1N=Nc1c(O)[nH]c2ccccc12,BACTEC,,,,MIC,H37Rv,≥12.5 µg/mL
CCCCC(CC)CN1CN(CC(CC)CCCC)CC(C)(NCCNCC(O)CO)C1,,,,,MIC,,25 µM
Cc1ccc(NCCN(C)C)c2c(=O)c3cc(O)ccc3oc12,BACTEC,,,12.5 µg/mL,inhibition,H37Rv,100%
O=[N+]([O-])c1cn2c(n1)OC[C@@H](OCc1ccc(Cc3ccc(C(F)(F)F)nc3)cc1)C2,resazurin,,,,MIC90,,0.045 µM
COc1ccc2[nH]c3c(C)c4ccncc4c(C)c3c2c1,,,,,MIC,TAC-R,0.4 µg/mL
CCOC(=O)NC1=NC(C(=O)c2ccc(OC)cc2)CS1,,,,,MIC,H37Rv,>50 µg/mL
CCOC(=O)C1Oc2ccc([N+](=O)[O-])cc2C1(C)O,BACTEC,,,,MIC bound,H37Rv,>12.5 µg/mL
CCOC(=O)NC1=NC(C(=O)c2ccc(Br)cc2)CS1,,,,,MIC,H37Rv,>50 µg/mL
CCC1CN2C(=N1)c1ccccc1-c1cc([N+](=O)[O-])ccc12,resazurin,,,,MIC bound,H37Rv,>6.25 µg/mL
CC(=O)Oc1cc(Cl)ccc1C(=O)Nc1ccc(Br)cc1,,,,,MIC,My 331/88,2 µg/mL
O=C1C=CC(=Nc2ccc(O)c(Cl)c2)C=C1,BACTEC,,,,MIC bound,H37Rv,>12.5 µg/mL
NC(=Nc1ccc2ccc3cccnc3c2n1)c1ccccc1,,,,,MIC,H37Rv,1–4 µg/mL
NNC(=O)C1C2c3ccccc3C(c3ccccc32)C1C(=O)NN,BACTEC,,,12.5 µg/mL,inhibition,H37Rv,3%
CN1CCN(c2cc3c(cc2F)c(=O)c(C(=O)O)cn3-c2ccc(N)cc2F)CC1,BACTEC,,,6.25 µg/mL,inhibition,H37Rv,100%
Cc1cc(C(C#N)c2ccc(Cl)cc2)c(Cl)cc1NC(=O)c1cc(I)cc(I)c1O,BACTEC,,VERO,,MIC,H37Rv,0.4 µg/mL
O=[N+]([O-])c1ccc(C2=NOC(c3ccc(N4CCN(Cc5ccccc5)CC4)cc3)C2)o1,,,,,MIC,UT29,0.012 µg/mL

A second listing of 5 rows from above:

CCOC(=O)N1CCN(c2ccc(C3CC(c4ccc([N+](=O)[O-])o4)=NO3)cc2)CC1 ; measure: MIC ; strain or isolate: UT30 ; result: 0.003 µg/mL
CC(=O)Oc1cc(Cl)ccc1C(=O)Nc1ccc(C(F)(F)F)cc1 ; measure: MIC ; strain or isolate: My 331/88 ; result: 4 µg/mL
COC(=O)NC1=NC(C(=O)c2ccc(Cl)cc2)CS1 ; measure: MIC ; strain or isolate: H37Rv ; result: 0.75 µg/mL
S=c1[nH]nc(-c2cnccn2)o1 ; measure: MIC ; strain or isolate: H37Rv ; result: 0.1 µg/mL
Cc1c(F)c(N2CCNC(C)C2)cc2c1c(=O)c(C(=O)O)cn2C1CC1 ; measure: MIC50 ; strain or isolate: 33 clinical isolates ; result: 0.5 µg/mL

Blank or dashed fields: not listed here. Rows are shuffled and stem from different studies. MIC bound: limit read from a one-dose screen. A number after MIC or MFC names an inhibition level or a share of isolates. Percent inhibition refers to the dose given; in toxicity tests it is the harm to the cells.